Read-outs that look alike come from different tables or passages of the source.
How the values were obtained:
[1] = biological target: T1, SARS-CoV-2 Spike (S) protein, wild type, full length (SARS-CoV-2, UniProt P0DTC2 14-1273); test: flow cytometry, CHO cells expressing full-length Spike
[2] = biological target: T1, SARS-CoV-2 Spike (S) protein, wild …; test: as above; remark: listed apart in the source
[3] = biological target: T1, SARS-CoV-2 Spike (S) protein, wild …; test: as above; remark: listed apart in the source
[4] = biological target: T1, SARS-CoV-2 Spike (S) protein, wild …; test: as above; remark: listed apart in the source
[5] = biological target: SARS-CoV Spike protein (full length Spike, coupled to optically encoded beads) (SARS-CoV, UniProt P59594 14-1190); test: multiplexed bead assay, flow cytometry
[6] = biological target: T2, SARS-CoV Spike protein (SARS-CoV, UniProt P59594 14-1190); test: multiplexed bead assay, flow cytometry
[7] = biological target: T2, SARS-CoV Spike protein; test: multiplexed bead assay, flow cytometry; remark: listed apart in the source
[8] = biological target: T3, SARS-CoV Spike protein (full length Spike, coupled to optically encoded beads) (SARS-CoV, UniProt P59594 14-1190); test: multiplexed bead assay, flow cytometry; remark: listed apart in the source
[9] = biological target: T3, SARS-CoV Spike protein (full length …); test: multiplexed bead assay, flow cytometry; remark: listed apart in the source
[10] = biological target: T4, SARS-CoV Spike protein (full length Spike, coupled to optically encoded beads) (SARS-CoV, UniProt P59594 14-1190); test: multiplexed bead assay, flow cytometry; remark: listed apart in the source
[11] = biological target: T4, SARS-CoV Spike protein (full length …); test: multiplexed bead assay, flow cytometry; remark: listed apart in the source
[12] = biological target: T5, SARS-CoV Spike protein (SARS-CoV, UniProt P59594 14-1190); test: multiplexed bead assay, flow cytometry, SARS-CoV Spike on beads
[13] = biological target: T5, SARS-CoV Spike protein

B1: antibody 506 (antibody, V domains shown)
VH: QITLKESGPTLVKPTQTLTLTCTFSGFSLSTSGVGVGWIRQPPGKALEWLALIYWDDDKRYSPSLKSRLTITKDTSKNQVVLTMTNMDPVDTATYYCAHHSLSSIFDYWGQGTLVTVSS
VL: QSALTQPASVSGSPGQSITISCTGTSSDVGDYNYVSWYQQHPGKAPKLMIYEVSNRPSGVSNRFSGSKSGNTASLTISGLQAEDEADYYCSSYTSSSTVFGGGTKLTVLG
[1]
  median fluorescence, fold over isotype control: 30.1 fold over isotype
[2]
  median fluorescence, fold over isotype control: 22.3 fold over isotype
[3]
  median fluorescence, fold over isotype control: 19 fold over isotype
[4]
  median fluorescence, fold over isotype control: 30.8 fold over isotype

B2: antibody 308 (antibody, V domains shown)
VH: QLQLQESGPGLVKPSETLSLTCSVSGGSISSSSYHWGWIRQPPGKGLEWIGSIYYSGSTYYNPSLKSRVTISVDTSKNQFSLKLRSVTAADTAVYYCAGLRVVITFGGVIPKGGAFDIWGQGTMVTVSS
VL: QSALTQPASVSGSPGQSITISCTGTSSDVGGYNYVSWYQQHPGKAPKLMIYDVSNRPSGVSNRFSGSKSGNTASLTISGLQAEDEADYYCSSYTSSSTVVFGGGTKLTVLG
[5]
  median fluorescence intensity, fold over isotype control: 22.8 fold over isotype

B3: antibody 336 (antibody, V domains shown)
VH: QVQLVESGGGVVQPGRSLRLSCAASGFTFSSYAMHWVRQAPGKGLEWVAVISYDGSNKYYADSVKGRFTISRDNSKNTLYLQMNSLRAEDTAVYYCARAQTDYYDSSGWFDYWGQGTLVTVSS
VL: SYELTQPPSVSVSPGQTARITCSGDALPKQYAYWYQQKPGQAPVLVIYKDSERPSGIPERFSGSSSGTTVTLTISGVQAEDEADYYCQSADSSGTPHWVFGGGTKLTVL
[6]
  bead binding signal (median fluorescence, fold over isotype control): 1.08 fold over isotype control
[7]
  bead binding signal (median fluorescence, fold over isotype control): 1.09 fold over isotype control

B4: antibody 338 (antibody, V domains shown)
VH: QVQLQESGPGLVKPSETLSLTCAVSGYSISSDYYWGWIRQPPGKGLEWIGSIYHSGSTYYNPSLKSRVTISIDTSKNQFSLKLSSVTAADTAVYYCARDPGNYDILTGIFDYWGQGTLVTVSS
VL: QSALTQPASVSGSPGQSITISCTGTSSDVGVYNYVSWYQQHPGKAPKLMIYDVTNRPSGVSNRFSGSKSGNTASLTISGLQAEDEADYYCSSYTSSSTLAVYVFGTGTKVTVL
[6]
  bead binding signal (median fluorescence, fold over isotype control): 36.6 fold over isotype control
[7]
  bead binding signal (median fluorescence, fold over isotype control): 84.8 fold over isotype control

B5: anti-SARS-CoV-2 antibody 400 (antibody, V domains shown)
VH: QVQLVESGGGVVQPGRSLRLSCAASGFTFSSYGMHWVRQAPGKGLEWVAVISYDGSNKYYADSVKGRFTISRDNSKNTLYLQMNSLRAEDTAVYYCAKAIDILTGYGPGGMDVWGQGTTVTVSS
VL: QSVLTQPPSASGTPGQRVTISCSGSSSNIGSNYVYWYQQLPGTAPKLLIYRNNQRPSGVPDRFSGSKSGTSASLAISGLRSEDEADYYCAAWDDSLSGVVFGGGTKLTVL
[8]
  median fluorescence, fold over isotype: 0.91 fold over isotype
[9]
  median fluorescence, fold over isotype: 1 fold over isotype

B6: anti-SARS-CoV-2 antibody 532 (antibody, V domains shown)
VH: EVQLVESGGGLVQPGGSLRLSCAASGIIVSSNYMSWVRQAPGKGLEWVSVIYSGGSTYYADSVKGRFTISRDNSKNTLYLQMNSLRAEDTAVYYCAREGLVGATLAFDYWGQGTLVTVSS
VL: not shown
[10]
  fold over isotype control (median fluorescence): 0.8 fold over isotype
[11]
  fold over isotype control (median fluorescence): 1 fold over isotype

B7: anti-coronavirus antibody 554 (antibody, V domains shown)
VH: QVQLVESGGGVVQPGRSLRLSCAASGFTFSSYAMHWVRQAPGKGLEWVAVISYDGSNKYYADSVKGRFTISRDNSKNTLYLQMNSLRAEDTAVYYCARPQGGNYYYYGMDVWGQGTTVTVSS
VL: DIQMTQSPSSVSASVGDRVTITCRASQGISSWLAWYQQKPGKAPKLLIYAASSLQSGVPSRFSGSGSGTDFTLTISSLQPEDFATYYCQQANSFPLTFGGGTKVEIK
[12]
  binding signal (fold over isotype control): 8.45 fold over isotype control
[13]
  binding signal (fold over isotype control): 28 fold over isotype control

B8: anti-coronavirus antibody 568 (antibody, V domains shown)
VH: EVQLVESGGVVVQPGGSLRLSCAASGFTFDDYAMHWVRQAPGKGLEWVSLISWDGGSTYYADSVKGRFTISRDNSKNSLYLQMNSLRAEDTALYYCAKDIGYSSTTTEVGWFDPWGQGTLVTVSS
VL: DIQMTQSPSSVSASVGDRVTITCRASQGISSWLAWYQQKPGKAPKLLIYAASSLQSGVPSRFSGSGSGTDFTLTISSLQPEDFATYYCQQANSFPLTFGGGTKVEIK
[12]
  binding signal (fold over isotype control): 1.07 fold over isotype control
[13]
  binding signal (fold over isotype control): 0.99 fold over isotype control

From patent publication US20220356229A1 (published 2022)
